Experimental data taken from publication PMC11109429.

Biological target: ComE D58E (phosphomimetic) (Streptococcus pneumoniae D39) (UniProt Q79CK7)
Assay: DNase I footprinting
Details: recombinant protein; protein details: His6 (C-ter per strain table); label: 5' FAM; probe letters rebuilt from the primers and the genome

TAATTCCCAATAAAATCAGCTCTTTACTAGACAACCCCTTCAGCTTTTCAATAAAGCCTATTGATTTCAAAATGAATCCTTTCTCTCCAAATCTGCTGATTCAGATAATAGTAAGCTATCCTATATTGTACCACTTTTTTAGCAATTTGAAAACAAAGGAAACGTTTTCCAAAATAAAAACCCTATTTTATCCACCATATCAAGGCT (double strand) [PtacL footprinting probe]
binding result: binds

Construct, isoform or probe ends are uncertain for at least one entry.
